# HIV-1 5' UTR: effect of mutations on RNA dimer formation

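Randomly mutated transcripts starting with one, two or three G (1G, 2G, 3G), capped or uncapped, were folded for 30 min at 37 °C. Monomer and dimer bands were cut from native gels after folding in high salt (300 mM KCl, 5 mM MgCl2) or low salt (40 mM KCl, 0.1 mM MgCl2). Kdimer compares mutation frequencies in monomer and dimer, corrected for sequencing errors.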

Sequence of the HIV-1 NL4-3 5' RNA, positions 1 to 437, as numbered in the source:
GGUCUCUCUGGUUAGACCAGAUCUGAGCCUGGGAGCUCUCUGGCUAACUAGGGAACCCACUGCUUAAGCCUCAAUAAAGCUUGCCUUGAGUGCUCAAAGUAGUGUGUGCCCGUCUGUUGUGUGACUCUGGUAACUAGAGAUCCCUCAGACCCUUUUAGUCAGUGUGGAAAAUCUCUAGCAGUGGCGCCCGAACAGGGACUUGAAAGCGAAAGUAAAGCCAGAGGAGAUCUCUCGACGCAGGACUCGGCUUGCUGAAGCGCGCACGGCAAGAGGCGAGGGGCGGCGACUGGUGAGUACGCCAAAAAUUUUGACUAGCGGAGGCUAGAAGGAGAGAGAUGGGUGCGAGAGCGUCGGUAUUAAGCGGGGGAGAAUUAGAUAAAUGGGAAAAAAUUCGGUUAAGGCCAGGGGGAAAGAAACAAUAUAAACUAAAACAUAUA

Values are log2 Kdimer, the median over the changes at each position: higher means that changes there hinder dimer formation, below 0 that they favour it.
One numbering serves 1G, 2G and 3G.
A position is written with its base.

| position | 3G capped high-salt | 1G capped high-salt | 1G uncapped high-salt | 2G uncapped high-salt |
|---|---|---|---|---|
| C114 | 0.11 | 0.22 | -0.16 | -0.20 |
| U115 | -0.20 | 0.02 | -0.04 | -0.07 |
| G116 | 0.27 | 0.27 | 0.29 | 0.22 |
| U117 | -0.30 | 0.00 | -0.02 | -0.05 |
| U118 | 0.04 | 0.06 | 0.19 | 0.05 |
| G119 | -0.01 | -0.27 | -0.08 | 0.05 |
| U120 | 0.07 | 0.12 | 0.17 | 0.12 |
| G121 | -0.40 | -0.35 | -0.07 | 0.05 |
| U122 | -0.31 | -0.24 | 0.14 | 0.17 |
| G123 | -0.30 | -0.38 | 0.08 | 0.00 |
| A124 | 0.10 | 0.25 | 0.23 | 0.11 |
| C125 | -0.07 | -0.37 | 0.20 | 0.02 |
| U126 | 0.29 | 0.28 | 0.19 | 0.02 |
| C127 | -0.25 | -0.35 | 0.32 | 0.00 |
| U128 | 0.27 | -0.04 | 0.44 | 0.31 |
| G129 | 0.06 | 0.01 | 0.46 | 0.37 |
| G130 | 0.42 | 0.15 | 0.24 | 0.34 |
| U131 | 0.13 | 0.13 | 0.09 | 0.34 |
| A132 | 0.08 | 0.01 | 0.16 | 0.04 |
| A133 | -0.05 | -0.01 | 0.20 | 0.11 |
| C134 | -0.22 | -0.15 | 0.15 | -0.03 |
| U135 | -0.15 | -0.08 | 0.24 | 0.24 |
| A136 | -0.09 | -0.14 | 0.20 | 0.23 |
| G137 | -0.05 | -0.13 | 0.26 | 0.33 |
| A138 | 0.05 | -0.02 | 0.31 | 0.27 |
| G139 | -0.19 | -0.08 | 0.23 | 0.30 |
| A140 | -0.22 | -0.12 | 0.27 | 0.20 |
| U141 | -0.24 | -0.09 | 0.14 | 0.23 |
| C142 | 0.07 | 0.02 | -0.04 | 0.09 |
| C143 | 0.04 | -0.13 | 0.06 | 0.19 |
| C144 | 0.14 | -0.03 | 0.08 | 0.03 |
| U145 | 0.09 | 0.11 | 0.14 | 0.10 |
| C146 | -0.10 | 0.04 | 0.04 | 0.16 |
| A147 | 0.05 | -0.06 | 0.09 | 0.06 |
| G148 | -0.09 | 0.07 | 0.24 | 0.34 |
| A149 | 0.88 | 0.18 | 0.33 | 0.75 |
| C150 | -0.06 | 0.06 | 0.26 | 0.32 |
| C151 | -0.01 | 0.03 | -0.05 | -0.06 |
| C152 | 0.06 | -0.05 | -0.05 | 0.06 |
| U153 | 0.00 | 0.03 | -0.03 | -0.07 |
| U154 | 0.09 | 0.02 | 0.03 | 0.16 |
| U155 | -0.06 | 0.00 | 0.07 | 0.09 |
| U156 | -0.09 | -0.02 | 0.04 | 0.04 |
| A157 | 0.09 | 0.03 | 0.21 | 0.04 |
| G158 | -0.44 | -0.58 | -0.04 | 0.00 |
| U159 | -0.14 | 0.00 | 0.19 | -0.07 |
| C160 | -0.30 | -0.50 | -0.09 | 0.03 |
| A161 | 0.07 | 0.02 | 0.11 | 0.07 |
| G162 | 0.03 | 0.07 | 0.11 | 0.23 |
| U163 | 0.05 | 0.09 | 0.10 | 0.12 |
| G164 | -0.10 | -0.16 | -0.02 | 0.12 |
| U165 | 0.08 | -0.05 | 0.11 | -0.05 |
| G166 | -0.11 | -0.26 | 0.15 | 0.19 |
| G167 | -0.02 | -0.14 | 0.36 | 0.26 |
| A168 | 0.06 | 0.07 | 0.09 | 0.14 |

The last 5 entries again:

position,3G capped high-salt,1G capped high-salt,1G uncapped high-salt,2G uncapped high-salt
G164,-0.10,-0.16,-0.02,0.12
U165,0.08,-0.05,0.11,-0.05
G166,-0.11,-0.26,0.15,0.19
G167,-0.02,-0.14,0.36,0.26
A168,0.06,0.07,0.09,0.14

The measurements come from Ye et al. 2022 (doi:10.1038/s41594-022-00746-2).